For this assay, the target named is RNA-editing ligase 1, mitochondrial (Trypanosoma brucei brucei) (UniProt P86926). Briefly: T. brucei editing ligase REL1 blockade – biochemical, FRET fluorescence, triplicate, confirmation (AID 1117282).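 Also: 0% = REL1 with substrate and DMSO and 100% = REL1 plus control inhibitor NSC42067.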 As to conditions: TbREL1 RNA ligation, at 9.66 µM, active compounds read high.

Sequences of proteins named here, by UniProt entry; tags and fusion partners are left off.
UniProt P86926, whole entry: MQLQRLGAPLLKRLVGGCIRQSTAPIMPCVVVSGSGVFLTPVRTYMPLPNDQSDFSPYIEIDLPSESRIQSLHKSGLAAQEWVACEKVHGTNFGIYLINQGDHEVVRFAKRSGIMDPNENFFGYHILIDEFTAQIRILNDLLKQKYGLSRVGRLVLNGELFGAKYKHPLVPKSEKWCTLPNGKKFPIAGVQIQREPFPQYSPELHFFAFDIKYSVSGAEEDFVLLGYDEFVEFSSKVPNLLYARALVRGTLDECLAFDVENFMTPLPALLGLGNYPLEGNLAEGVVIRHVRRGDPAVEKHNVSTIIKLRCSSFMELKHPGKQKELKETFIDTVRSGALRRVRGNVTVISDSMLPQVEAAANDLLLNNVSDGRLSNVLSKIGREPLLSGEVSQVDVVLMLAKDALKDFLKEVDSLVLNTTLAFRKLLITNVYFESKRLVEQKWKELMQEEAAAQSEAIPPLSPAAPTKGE

Only a part is listed here, and it is no random draw. Active and inactive are the calls of the source.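 The calls were made as follows: active = mean inhibition across replicates above a set limit taken from the earlier primary screen (cut at about 11% in these data); inactive = the rest.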

On to `N#Cc1ccc(C(=O)NCC2(N3CCCCC3)CCCCC2)cc1`, for which the inhibition is inactive: -0.22%.

What is called inhibition is the drop in the measured response relative to a control, in per cent.

Source of the values: PubChem BioAssay AID1117282 (The Scripps Research Institute Molecular Screening Center, 2014).
